Measured values from a compilation of properties of binary mixtures (doi:10.1021/acs.jpcb.0c03272).

Assay: xn = mol fraction of the nth substance listed
Settings: 100 kPa, x2 = 0.55

O=S(=O)(F)[N-]S(=O)(=O)C(F)(F)F.[K+] + O=S(=O)(F)[N-]S(=O)(=O)F.[K+]
Settings	electrical conductivity [S/m]	viscosity [mPa·s]
343.1 K	0.12	–
351.2 K	–	778
361.9 K	–	340
364.1 K	0.41	–
372 K	0.67	–
372.6 K	–	198
382.1 K	–	124.4
383.5 K	1.05	–
393 K	1.45	–
403.7 K	2.06	–
412.4 K	–	43.4
422.5 K	–	33.1
423.1 K	3.42	–
